Experimental data published in patent publication US9301999B2 (priority 2009, dated 2016).

Test system: anthrax lethal toxin
Settings: Day 42 serum, macrophage assay, serum dilutions 1:32 through 1:128, p=0.05 ANOVA

Substance: cholera toxin
- lethal toxin neutralizing antibody response in serum: did not induce lethal toxin neutralizing responses greater than those detected in mice immunized with rPA alone
